US10085445B2, “Biocorrosion inhibitor for metal” (KURARAY CO., LTD., priority 2013, dated 2018)

Tested on: activated sludge
Test: Biodegradability test (OECD 301C, JIS K 6950)
Conditions: for biodegradation ratio at 28 days (average) / biodegradation ratio at 28 days: 25° C.; for biodegradation ratio at 28 days: individual values n=2; for degradability judgement: not less than 60% = good degradable
[1] = high concentration group (100 ppm)
[2] = low concentration group (30 ppm)

O=CCCCC=O [glutaraldehyde]
biodegradation ratio at 28 days (average) [1]: 52.6% | biodegradation ratio at 28 days [1]: 52.7% and 52.5% | degradability judgement [1]: partial degradability (hardly degradable) | biodegradation ratio at 28 days (average) [2]: 78.0% | biodegradation ratio at 28 days [2]: 78.5% and 77.5% | degradability judgement [2]: good degradability

Values joined by “and” are separate entries in the source; they are usually repeats but may differ in a detail not shown here. Equal values may be shown once.
